Pooled drug test results. Numbers come from NIAID ChemDB, via PubChem.

Shared fields: growth or infection tests; organism: Bovine viral diarrhea virus

ECn: concentration that inhibits the pathogen or its effect by n%. Blank or dashed fields: not listed here. Inhibition is in % at the dose shown (toxicity tests: loss of growth or viability). Lines come from different laboratories, so protocols vary.

structure	strain or isolate	cell line	read by	read-out	tested at	value
CO/N=C(/N)c1ccc(-c2ccc(-c3ccc(/C(N)=N\OC)cc3)o2)cc1		MDBK		inhibition	25 µM	0%
Brc1ccc(Cn2ccc3nc(-c4ccccc4)nc-3c2)cc1	PE515	MDBK	cytopathic effect	EC50		0.165 µg/mL
Nc1ccn([C@@H]2O[C@H](CO)[C@@H](O)[C@H]2F)c(=O)n1	NADL	MDBK		EC90		>100 µM
Nc1ccn([C@@H]2O[C@H](CO)[C@@H](O)[C@H]2F)c(=O)n1		MDBK	replicon	EC90		>100 µM
O=C1Nc2ccc([N+](=O)[O-])cc2/C1=N/N=C1/SCC(=O)N1c1ccc(Br)cc1		MDBK	cytopathic effect	EC50		>5 µg/mL
Brc1ccc(Cn2ccc3nc(-c4ccccc4Br)nc-3c2)cc1	PE515	MDBK	cytopathic effect	EC50		0.026 µg/mL
O=C1Nc2ccc([N+](=O)[O-])cc2/C1=N/N=C1/SCC(=O)N1c1ccc(F)cc1		MDBK	cytopathic effect	EC50		>9 µg/mL
O=c1nc(NO)ccn1[C@H]1O[C@@H](CO)[C@H](O)[C@@H]1F		MDBK	PCR	EC90		5.4 µM
CC1S/C(=N/N=C2\C(=O)Nc3ccc([N+](=O)[O-])cc32)N(c2ccc(F)cc2)C1=O		MDBK	cytopathic effect	EC50		>3 µg/mL
Cc1ccccc1-c1nc2ccn(Cc3ccc(Br)cc3)cc-2n1	PE515	MDBK	cytopathic effect	EC50		0.033 µg/mL
CCCCN1C(=O)CS/C1=N/N=C1\C(=O)Nc2ccc([N+](=O)[O-])cc21		MDBK	cytopathic effect	EC50		>50 µg/mL
Nc1nc2c(ncn2[C@@H]2O[C@H](CO)C(O)(C(F)(F)F)[C@H]2O)c(=O)[nH]1				EC50		≥100 µM
N=C(N)c1ccc(-c2ccc(-c3nc4ccc(C(=N)N)cc4[nH]3)o2)cc1		MDBK		inhibition	25 µM	90%
Brc1ccc(Cn2ccc3nc(-c4ccccc4)nc-3c2)cc1	NADL (TYPE 1)	MDBK	PCR	EC50		0.12 µM
NCCCC[C@H](N)C(=O)Nc1cccc(-c2ccc(NC(=O)Nc3nc4ccccc4s3)nc2)c1	NADL	MDBK	plaque count	EC50		0.6 µM
CCCCN1C(=O)C(C)S/C1=N/N=C1\C(=O)Nc2ccc([N+](=O)[O-])cc21		MDBK	cytopathic effect	EC50		>50 µg/mL
O=c1nc(NO)ccn1[C@@H]1O[C@H](CO)[C@@H](O)[C@H]1O		MDCK	virus yield	inhibition	2 µM	90%
c1ccc(CCOn2ccc3nc(-c4ccccc4)nc-3c2)cc1	PE515	MDBK	cytopathic effect	EC50		0.01 µg/mL
COc1cc(N=C(N)N)ccc1-c1ccc(-c2ccc(N=C(N)N)cc2OC)o1		MDBK		inhibition	25 µM	93%
Fc1ccc(Cn2ccc3nc(-c4ccccc4)nc-3c2)cc1	PE515	MDBK	cytopathic effect	EC50		0.097 µg/mL
O=[N+]([O-])c1ccc2[nH]c(O)c(N=NC(=S)Nc3ccccc3)c2c1		MDBK	cytopathic effect	EC50		>50 µg/mL
Nc1ccn([C@@H]2O[C@H](CO)[C@](O)(C(F)(F)F)[C@H]2O)c(=O)n1				EC50		≥100 µM
CC1S/C(=N/N=C2\C(=O)Nc3ccc([N+](=O)[O-])cc32)N(c2ccc([N+](=O)[O-])cc2)C1=O		MDBK	cytopathic effect	EC50		>18 µg/mL
COc1ccccc1Cn1ccc2nc(-c3ccccc3)nc-2c1	PE515	MDBK	cytopathic effect	EC50		0.049 µg/mL
Nc1ccn([C@@H]2O[C@H](CO)[C@@H](O)[C@H]2F)c(=O)n1		MDBK	PCR	EC90		>100 µM
C=CCNC(=S)N=Nc1c(O)n(CN2CCOCC2)c2ccc([N+](=O)[O-])cc12		MDBK	cytopathic effect	EC50		40 µg/mL

For reference, 2 entries again:

Nc1nc2c(ncn2[C@@H]2O[C@H](CO)C(O)(C(F)(F)F)[C@H]2O)c(=O)[nH]1 ; read-out: EC50 ; value: ≥100 µM
Nc1ccn([C@@H]2O[C@H](CO)[C@](O)(C(F)(F)F)[C@H]2O)c(=O)n1 ; read-out: EC50 ; value: ≥100 µM